A mixed list of measured activities; the numbers were collected in NIAID ChemDB.

All rows: tests in culture; species: Mycobacterium tuberculosis

An empty or dashed field is not shown. MIC bound comes from a single tested concentration. MIC50, MIC90 and the like: level of inhibition, or share of isolates inhibited. Lines come from different laboratories, so protocols vary. Inhibition is in % at the dose shown (toxicity tests: loss of growth or viability). ECn is the concentration giving n% inhibition of infection, replication or growth.

SMILES,conditions,read by,endpoint,strain,mutations,tested at,value
COc1ccc(C(=O)Nc2ccc(-c3nnc(Nc4ccc(C)cc4)o3)cc2)cc1,-,-,MIC,H37Rv,-,-,>6.25 µg/mL
CCOC(=O)Cc1cc(C2CCCCC2)nc2ccccc12,-,-,MIC,H37Rv,-,-,>6.25 µg/mL
COCCN(C1CCN(CC2C(c3ccc(Cl)cc3)=Nc3c(C)cccc32)C1)S(C)(=O)=O,-,-,MIC,-,-,-,6.25 µM
CCN(CC)c1nc2c(s1)c1c(O)c3c(O)c(C)c4c(c32)C(=O)[C@@](C)(O/C=C/[C@H](OC)[C@@H](C)[C@@H](OC(C)=O)[C@H](C)[C@H](O)[C@H](C)[C@@H](O)[C@@H](C)/C=C/C=C(/C)C(=O)N1)O4,-,-,MBC,H37Rv,-,-,2 µg/mL
c1ccc(C2OC3C4COC(O4)C3O2)cc1,-,BACTEC,inhibition,H37Rv,-,12.5 µg/mL,0%
CC(C)C[C@@H]1NC(=O)[C@H](Cc2c[nH]c3ccccc23)NC(=O)[C@H](CCCCN)NC(=O)[C@H](CC(N)=O)NC(=O)[C@H](C(C)C)NC(=O)[C@@H](CC(C)C)NC1=O,-,turbidity,EC50,H37Ra,-,-,>30 µM
O=C(Oc1ccc(Cl)cc1C(=O)Nc1ccc(Cl)c(Cl)c1)c1ccccc1,21 d,broth dilution,MIC,7357/1998,-,-,0.5 µM
CO[C@H]1/C=C/O[C@@]2(C)Oc3c(C)c(O)c4c(O)c(c(/C=N/N5CCN(C)CC5)c(O)c4c3C2=O)NC(=O)/C(C)=C\C=C\[C@H](C)[C@H](O)[C@@H](C)[C@@H](O)[C@@H](C)[C@H](OC(C)=O)[C@@H]1C,-,turbidity,MIC90,H37Rv,-,-,1 µM
CCCCCCCCCCCCCCCC(=O)OC(COC[C@H]1O[C@@H]2OC(C)(C)O[C@@H]2[C@H]2OC(C)(C)O[C@H]21)Cn1cnc([N+](=O)[O-])c1,-,agar,MIC,H37Rv,-,-,>12.5 µg/mL
COC(=O)Cc1cc(C2CCCC2)nc2ccccc12,-,-,inhibition,H37Rv,-,6.25 µg/mL,3%
C/C(=N\NC(=O)c1ccncc1)c1ccc(Cl)c(Cl)c1,-,-,MIC,16PI,-,-,>20 µg/mL
Cc1coc(NS(=O)(=O)c2ccc(N=Nc3c(N)[nH]c(=S)[nH]c3=O)cc2)c1C,-,BACTEC,inhibition,H37Rv,-,12.5 µg/mL,-1%
CC1(C)O[C@H]2[C@@H](O1)[C@@H](COCC(Cn1ccnc1[N+](=O)[O-])OCc1ccc(OC(F)(F)F)cc1)O[C@@H]1OC(C)(C)O[C@@H]12,-,agar,MIC,H37Rv,-,-,3.13 µg/mL
O=C1[C@@H]2C(c3ccccc3)=NN(C(=O)c3ccccc3)[C@@H]2C(=O)N1c1ccccc1,-,BACTEC,MIC,H37Rv,-,-,≥12.8 µg/mL
COc1ccc(N=Nc2c(O)c3cccc([N+](=O)[O-])c3n(C)c2=O)c(C)c1,-,resazurin,MIC,H37Rv,-,-,>6.25 µg/mL
CC1COc2c(N3CCN(C)CC3)c(F)cc3c(=O)c(C(=O)O)cn1c23,-,-,MIC,H37Rv,-,-,0.707 µg/mL
COCCN(C1CCN(CC2C=Nc3c(C)cccc32)C1)S(C)(=O)=O,-,-,MIC,-,-,-,100 µM
CC1COc2c(N3CCN(C)CC3)c(F)cc3c(=O)c(C(=O)O)cn1c23,-,resazurin,MIC,D-211,Drug-resistant,-,0.14 µM
CC(C)C[C@@H]1NC(=O)[C@H](Cc2c[nH]c3ccccc23)NC(=O)[C@@H](CCCN=C(N)N)NC(=O)[C@H](CC(N)=O)NC(=O)[C@H](C(C)C)NC(=O)[C@@H](CC(C)C)NC1=O,-,turbidity,MIC90,H37Rv,-,-,2.97 µM
O=C1N(CC2CC2)c2ccccc2C12CCN(Cc1cccnc1)CC2,-,resazurin,MIC,H37Rv,-,-,50 µM
COc1ccc(C(=O)Nc2ccc(C(=O)N/N=C3\SCC(=O)N3C)cc2)cc1,-,-,MIC,H37Rv,-,-,>6.25 µg/mL
COCCN(C1CCN(CC2C(c3ccccc3)=Nc3ccccc32)C1)S(C)(=O)=O,-,-,MIC,-,-,-,6.25 µM
O=c1[nH]c2c([N+](=O)[O-])cccc2c(O)c1N=Nc1ccccc1-c1ccccc1,-,resazurin,inhibition,H37Rv,-,6.25 µg/mL,35%
COC(=O)c1ccc(=O)c2nc3/c(=C\O)c(O)cc(=O)c3[nH]c12,-,BACTEC,MIC,H37Rv,-,-,128 µg/mL
CC(C)C[C@@H]1NC(=O)[C@H](Cc2c[nH]c3ccccc23)NC(=O)[C@@H](CCCCN)NC(=O)[C@H](CC(N)=O)NC(=O)[C@H](C(C)C)NC(=O)[C@@H](CC(C)C)NC1=O,-,turbidity,EC50,CDC1551,-,-,0.47 µM
O=c1nc2[nH]c3ccccc3c2n[nH]1,-,resazurin,inhibition,H37Rv,-,6.25 µg/mL,29%
CO/C(=N\N=C\c1ccccc1F)c1ccncc1,-,-,MIC,H37Rv,-,-,>20 µg/mL
O=C(NC1CCN(Cc2ccncc2)CC1)c1ccc(-n2cccn2)cc1,-,-,MIC,-,-,-,>200 µM
COC(=O)N1CCCCC(CCC#CC[Si](C)(C)C)C1=O,-,BACTEC,MIC bound,H37Rv,-,-,>12.5 µg/mL
NNC(=O)c1ccncc1,-,-,MIC,Isolate J,-,-,0.062 µg/mL
COC1(OC)CC2OC1C1N=NN(C(=O)OC(C)(C)C)C21,-,BACTEC,inhibition,H37Rv,-,12.5 µg/mL,11%
O=C(Oc1cc(Cl)ccc1C(=O)Nc1ccc(Br)cc1)c1ccccc1,14 d,broth dilution,MIC,331/88 (H37Rv),-,-,2 µM
C1=C(c2nc(-c3ccccc3)no2)c2ccccc2C12CCN(CC1CC1)CC2,-,colony count / visual reading,MBC,H37Rv,-,-,0.4 µM
COc1cccc2c1cc1c3c(cc4c(c32)OCO4)C(=O)N1,-,resazurin,MIC,H37RvIr,-,-,25 µg/mL
COc1ccc(NC(=S)NNC(=O)c2ccc(NC(=O)c3ccc(OC)cc3)cc2)cc1,-,-,MIC,H37Rv,-,-,>6.25 µg/mL
CCOC(=O)c1c(N)ssc1=S,-,BACTEC,MIC,H37Rv,-,-,12.5 µg/mL
O=C(Oc1ccc(Br)cc1C(=O)Nc1ccc(C(F)(F)F)cc1)c1ccccc1,21 d,broth dilution,MIC,Praha 1,-,-,1 µM
O=C(Nc1ccc2oc3ccc(Cl)cc3c(=O)c2c1)c1ccc(Cl)cc1Cl,-,BACTEC,inhibition,H37Rv,-,12.5 µg/mL,-18%
CC(C)C[C@@H]1NC(=O)[C@H](Cc2c[nH]c3ccccc23)NC(=O)[C@@H](CCCN)NC(=O)[C@H](CC(N)=O)NC(=O)[C@H](C(C)C)NC(=O)[C@@H](CC(C)C)NC1=O,-,turbidity,MIC90,HN878,-,-,2.97 µM
CO[C@H]1/C=C/O[C@@]2(C)Oc3c(C)c(O)c4c(O)c(c(/C=N/N5CCN(C)CC5)c(O)c4c3C2=O)NC(=O)/C(C)=C\C=C\[C@H](C)[C@H](O)[C@@H](C)[C@@H](O)[C@@H](C)[C@H](OC(C)=O)[C@@H]1C,-,-,MIC,H37Rv,-,-,0.06 µg/mL
CC(=O)c1ccc(N=Nc2c(O)c3ccc(Cl)cc3[nH]c2=O)cc1,-,resazurin,MIC,H37Rv,-,-,>6.25 µg/mL
CCCCCCCCCCCCCCCOC(COC[C@H]1O[C@@H]2OC(C)(C)O[C@@H]2[C@H]2OC(C)(C)O[C@H]21)Cn1cnc([N+](=O)[O-])c1C,-,agar,MIC,H37Rv,-,-,3.13 µg/mL
Cc1nn(-c2nc(-c3ccc(Br)cc3)cs2)c(C)c1C,-,BACTEC,MIC bound,H37Rv,-,-,>12.5 µg/mL
COC(=O)c1cc(C2CCCC2)c2c(C3CCCC3)cccc2n1,-,-,inhibition,H37Rv,-,6.25 µg/mL,99%
CC[C@@H](CO)NCCN[C@@H](CC)CO,-,agar,MIC,H37Rv,-,-,1.56 µg/mL
C1=C(c2nc(-c3cccnc3)no2)c2ccccc2C12CCN(CC1CCCO1)CC2,-,resazurin,MIC,ATCC 2794,Drug-resistant,-,1.56 µM
COc1cc2c3c(cc4cc5c(cc4c3c1OC)OCO5)N(C=O)CC2,-,resazurin,MIC,H37RvEr,-,-,>50 µg/mL
O=C(O)c1cnc(Cl)cn1,-,-,MIC,ATCC 27294,-,-,128 µg/mL
O=c1[nH]c2c(Cl)c(Cl)ccc2c(O)c1N=Nc1cccc(F)c1,-,resazurin,MIC,H37Rv,-,-,<6.25 µg/mL
COc1ccc(C(=O)Nc2ccc(C(=O)NN3C(=O)CSC3c3ccc([N+](=O)[O-])o3)cc2)cc1,-,-,MIC,H37Rv,-,-,>6.25 µg/mL
[N-]=[N+]=CC(=O)OC[C@@H]1NC(=O)[C@@H](COC(=O)C=[N+]=[N-])NC1=O,-,BACTEC,MIC,H37Rv,-,-,≥12.5 µg/mL
NNC(=O)c1ccncc1,-,fluorescence / absorbance,MIC,H37Rv,-,-,0.97 µM
O=C(Oc1cc(Cl)ccc1C(=O)Nc1cccc(Br)c1)c1ccccc1,21 d,broth dilution,MIC,331/88 (H37Rv),-,-,4 µM
COc1ccc(-n2sc3ncc(-c4ccccc4)cc3c2=O)cc1,-,resazurin,MIC bound,H37Rv,-,-,>6.25 µg/mL
C/C(=N\NC(=O)c1ccncc1)c1ccc(F)cc1,-,-,MIC,16PI,-,-,>20 µg/mL
Nc1ccn([C@@H]2CO[C@H](CO)O2)c(=O)n1,-,BACTEC,inhibition,H37Rv,-,12.5 µg/mL,0%
CO/C(=N\N=C\c1ccccc1)c1ccncc1,-,-,MIC,16PI,-,-,>20 µg/mL
Cc1ccc(-c2noc(C3=CC4(CCN(CC5CCCO5)CC4)c4ccccc43)n2)cn1,-,resazurin,MIC,912253,Isoniazid-resistant,-,1.56 µM
CC(=O)c1ccc(N=Nc2c(O)c3ccc(Cl)c(Cl)c3[nH]c2=O)cc1,-,resazurin,inhibition,H37Rv,-,6.25 µg/mL,98%
O=C(Oc1ccc(Cl)cc1C(=O)Nc1ccc(C(F)(F)F)cc1)c1ccccc1,14 d,broth dilution,MIC,Praha 1,-,-,0.5 µM
COCCN(C1CCN(CC2C(c3ccccc3)=Nc3c(C)cc(C)cc32)C1)S(C)(=O)=O,-,-,MIC,-,-,-,100 µM
CCOC(=O)c1cc2c(=O)c3c(ccc4ccccc43)oc2n(C)c1=O,-,BACTEC,MIC bound,H37Rv,-,-,>12.5 µg/mL
NNC(=O)c1ccncc1,-,agar,MIC,H37Rv,-,-,0.05 µg/mL
CN[C@@H]1[C@H](O[C@H]2[C@H](O[C@H]3[C@H](O)[C@@H](O)[C@H](N=C(N)N)[C@@H](O)[C@@H]3N=C(N)N)O[C@@H](C)[C@]2(O)C=O)O[C@@H](CO)[C@H](O)[C@H]1O,-,resazurin,MIC,19000,Rifampicin-resistant,-,0.5 µM
O=C(O)c1cc(C2CCCC2)nc2ccccc12,-,-,MIC,H37Rv,-,-,>6.25 µg/mL
CSC(=S)NNC(C)c1nccc2ccccc12,-,-,MIC,PZA-R,-,-,3.2 µg/mL
CCCCCCCCCCCCCCCOC(COC[C@H]1O[C@@H]2OC(C)(C)O[C@@H]2[C@H]2OC(C)(C)O[C@H]21)Cn1ccnc1[N+](=O)[O-],-,agar,MIC,H37Rv,-,-,6.25 µg/mL
Cc1ccsc1C(=S)Nc1ccc(Cl)c(/C=N/OC(C)(C)C)c1,-,BACTEC,MIC bound,H37Rv,-,-,≤12.5 µg/mL
Cc1nc2nc(S(=O)(=O)Nc3c(Br)ccc4cccnc34)nn2c2c1CCC2,-,visual reading,MIC50,P887,INH RIF resistant,-,2 µM
CSc1c(C)n([O-])c2cc(Cl)c(Cl)cc2[n+]1=O,-,BACTEC,MIC bound,H37Rv,-,-,<6.25 µg/mL
COC(=O)c1ccc2c(C3CCCCC3)cccc2n1,-,-,inhibition,H37Rv,-,6.25 µg/mL,43%
COc1ncc(F)c2nc(S(=O)(=O)Nc3c(O)cccc3C(C)O)nn12,-,visual reading,MIC50,X24,INH RIF resistant,-,0.5 µM
Cc1cccc(N=Nc2c(O)c3ccccc3[nH]c2=O)c1,-,resazurin,MIC,H37Rv,-,-,>6.25 µg/mL
CN(CC(O)C(O)CN(C)C(=S)[S-])C(=S)[S-].[K+].[K+],-,BACTEC,MIC,H37Rv,-,-,≥12.5 µg/mL
CCCCCCCCCCCCCCCOC(COC[C@H]1O[C@@H]2OC(C)(C)O[C@@H]2[C@H]2OC(C)(C)O[C@H]21)Cn1cnc([N+](=O)[O-])c1,-,agar,MIC,H37Rv,-,-,3.13 µg/mL
O=C(O)c1c(O)ccc(N=Nc2ccc(N=Nc3cc(S(=O)(=O)O)cc(S(=O)(=O)O)c3O)c3ccccc23)c1O.O=S([O-])O.[Na+].[Na+].[Na+].[Na+],-,BACTEC,MIC,H37Rv,-,-,≥128 µg/mL
COC(=O)c1c(C2CCCCC2)nc2ccccc2c1C1CCCCC1,-,-,MIC,H37Rv,-,-,6.25 µg/mL
CC(=O)N1c2ccccc2S(=O)(=O)c2c1ccc1ccccc21,-,BACTEC,inhibition,H37Rv,-,12.5 µg/mL,85%
CC1(C)O[C@H]2[C@@H](O1)[C@@H](COCC(C[N+]1=NC([N+](=O)[O-])N=C1)OCc1ccc(OC(F)(F)F)cc1)O[C@@H]1OC(C)(C)O[C@@H]12,-,agar,MIC,H37Rv,-,-,6.25 µg/mL